PubChem BioAssay AID1224833, University of Georgia, 2016
The deposit covers about 12,000 reagents; this is a part drawn at random. Over the whole deposit, about 5,600 (46%) were called active. 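Active calls cover z-scores past 1 in both directions, so they include lowered as well as raised rotavirus replication.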 Unmarked entries are inactive.

Aim: 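Human genes whose knock-down alters rotavirus replication in monkey cells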 (primary screen)
System: monkey MA104 kidney cells
Knock-down reagent: siRNA pool against human genes, 50 nM
Timing: 48 h knock-down before infection; read 24 h after infection
Conditions: infection with rotavirus strain RV3 two days after transfection; infectious dose for this stage not given
Detection: 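z-score of rotavirus antigen signal per well, from a fluorescent immunoassay, relative to non-targeting control wells on the same plate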
Reading the numbers: z-score vs non-targeting control: higher = more rotavirus replication than with non-targeting control
Call rule: In these data the active calls have z-score vs non-targeting control at about -1 or lower, or at about 1 or higher
Meaning of the calls: active = z-score beyond 1 either way; inactive = z-score within 1 of zero

C6orf58
- z-score vs non-targeting control: 0.914

RAB3IL1
- z-score vs non-targeting control: 0.713

CDX2
- z-score vs non-targeting control: 1.79 (active)

LAMTOR4
- z-score vs non-targeting control: -1.75 (active)

SLIT3
- z-score vs non-targeting control: -0.339

RPL3L
- z-score vs non-targeting control: -1.09 (active)

OR10H2
- z-score vs non-targeting control: -1.46 (active)

ECE2
- z-score vs non-targeting control: 1.01 (active)

CCAR1
- z-score vs non-targeting control: -1.38 (active)

NUFIP2
- z-score vs non-targeting control: -0.975

UQCC1
- z-score vs non-targeting control: -1.46 (active)

H2BC12
- z-score vs non-targeting control: -0.998

PSME1
- z-score vs non-targeting control: -1.15 (active)

RELB
- z-score vs non-targeting control: -0.619

TMED5
- z-score vs non-targeting control: -0.899

GADD45B
- z-score vs non-targeting control: -1.85 (active)

PHACTR4
- z-score vs non-targeting control: -0.562

EMG1
- z-score vs non-targeting control: -2.23 (active)

KRT13
- z-score vs non-targeting control: -0.0099

VANGL2
- z-score vs non-targeting control: 1.61 (active)

OFCC1
- z-score vs non-targeting control: -1.16 (active)

PSMD5
- z-score vs non-targeting control: 0.0958

GAP43
- z-score vs non-targeting control: -1.08 (active)

TNFSF15
- z-score vs non-targeting control: -0.421

CCDC89
- z-score vs non-targeting control: -0.514

ZNF43
- z-score vs non-targeting control: -1.21 (active)

DDT
- z-score vs non-targeting control: 0.539

CLDN8
- z-score vs non-targeting control: 1.08 (active)

PPAN-P2RY11
- z-score vs non-targeting control: -0.195

CCDC116
- z-score vs non-targeting control: -0.528

PDCD7
- z-score vs non-targeting control: 0.625

POLB
- z-score vs non-targeting control: -0.832

4 entries from above, ordered by “z-score vs non-targeting control”, highest first:
SLIT3
- z-score vs non-targeting control: -0.339

RPL3L
- z-score vs non-targeting control: -1.09 (active)

OR10H2
- z-score vs non-targeting control: -1.46 (active)

LAMTOR4
- z-score vs non-targeting control: -1.75 (active)
